Zika virus NS2B-NS3: effect of single substitutions on growth in cell culture

The measurements come from Ni et al. 2025 (doi:10.1038/s41467-025-63602-z).

Chain scanned (Zika virus MR766; NS2B from position 2 to 131, then the start of NS3):
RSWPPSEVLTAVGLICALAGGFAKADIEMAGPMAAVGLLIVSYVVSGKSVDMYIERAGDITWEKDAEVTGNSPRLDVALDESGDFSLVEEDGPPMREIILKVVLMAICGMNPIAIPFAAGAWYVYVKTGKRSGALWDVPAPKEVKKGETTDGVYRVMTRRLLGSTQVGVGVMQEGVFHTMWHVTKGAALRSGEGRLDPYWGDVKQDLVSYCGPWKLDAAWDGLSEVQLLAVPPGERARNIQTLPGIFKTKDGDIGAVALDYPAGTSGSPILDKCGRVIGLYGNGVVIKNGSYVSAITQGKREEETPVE

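Libraries of single mutants were passaged as virus pools on Huh-7.5 cells. The effect is the change in frequency of a mutant, normalised to wild type, as a mean of three replicate libraries (two for positions 207-308). The study looked for pockets that tolerate few changes, as a guide for inhibitor design.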

The number is log2 of the effect relative to wild type; negative values mean reduced growth, higher values better tolerance.
A change reads original residue, position, new residue.
All changes here are to lysine.

mutation,effect (log2)
D206K,-5.97
L207K,-7.34
V208K,-7.64
S209K,-6.72
Y210K,-7.10
C211K,-5.13
G212K,-7.20
P213K,-3.29
W214K,-7.85
L216K,-6.88
D217K,-5.82
A218K,-6.21
A219K,0.89
W220K,-6.47
D221K,-5.08
G222K,-1.62
L223K,-5.55
S224K,-5.64
E225K,-4.63
V226K,-4.31
Q227K,-7.35
L228K,-4.19
L229K,-6.39
A230K,-4.70
V231K,-4.16
P232K,-4.63
P233K,-5.26
G234K,-1.49
E235K,-1.31
R236K,1.19
A237K,0.24
R238K,2.02
N239K,-5.86
I240K,-5.31
Q241K,-7.37
T242K,-6.03
L243K,-2.59
P244K,-4.78
G245K,-5.95
I246K,-5.18
F247K,-6.08
T249K,-3.10
D251K,-5.74
G252K,-2.40
D253K,-5.32
I254K,-6.17
G255K,-6.13
A256K,-5.75
V257K,-3.91
A258K,-5.08
L259K,-5.27
D260K,-4.14
Y261K,-4.27
P262K,-3.74
A263K,-5.42
G264K,-5.47
T265K,-4.15
S266K,-5.23
G267K,-4.94
S268K,-3.21
P269K,-4.71
I270K,-4.29
L271K,-3.88
D272K,-3.02
C274K,-3.16
G275K,-4.08
R276K,-2.12
V277K,-4.74
I278K,-5.06
G279K,-4.90
L280K,-5.43
Y281K,-5.32
G282K,-4.38
N283K,-5.91
G284K,-5.07
V285K,-4.30
V286K,-5.31
I287K,-2.67
N289K,-5.56
G290K,-5.41
S291K,-5.18
Y292K,-4.26
V293K,-4.63
S294K,-4.92
A295K,-5.22
I296K,-4.86
T297K,-4.08
Q298K,-5.98
G299K,-4.32
R301K,-4.33
E302K,-1.11
E303K,-4.63
E304K,-3.13
T305K,-0.83
P306K,-2.08
V307K,-2.91
E308K,-3.74

The first 10 entries again:

mutation,effect (log2)
D206K,-5.97
L207K,-7.34
V208K,-7.64
S209K,-6.72
Y210K,-7.10
C211K,-5.13
G212K,-7.20
P213K,-3.29
W214K,-7.85
L216K,-6.88

The region was split into three libraries (1-103, 104-206, 207-308).
Six mutants with high scores were retested singly and none clearly outgrew wild type, so positive values are not proof of better growth.
Position 1 still belongs to NS2A. In the paper, -1 or higher counts as tolerated.